System: LPN/POPC/DOPS (4 : 1)
Assay: 1H,15N chemical shift comparison of NT II in water and in complex with LPN
Details: aqueous environment vs LPN complex

B1: neurotoxin II (peptide)
chain: LECHNQQSSQPPTTKTCSGETNCYKKWWSDHRGTIIERGCGCPKVKPGVNLNCCRTDRCNN
changes in spatial structure upon complex formation (1H and 15N chemical shifts): no significant changes in the spatial structure | residue with chemical shift changes exceeding 0.03 (1H) and 0.2 (15N) ppm (data not shown): only for one Arg32 residue
